{"source": "PubChem BioAssay AID504761 (Drosophila RNAi Screening Center, 2011)", "assay": "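Genome-wide fly cell screen for genes dengue virus requires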 (primary screen)", "cells": "D.Mel-2 cells from Drosophila", "knock-down reagent": "long dsRNA against Drosophila genes", "treatment": "infection with dengue virus type 2; dose and infection time not stated", "measured": "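Per well on two replicate plates, imaging gave the percent of cells positive for viral envelope protein, ranked by infection, and a nuclear count of cells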", "scale": "infection score: higher = more virus-infected cells; cell count: higher = more cells in the well", "active means": "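Very low infection ranking in both replicate wells (chance probability at most 0.065), then a retest showing infection dropped 1.5-fold or more at p below 0.05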", "calls": "active = confirmed: knock-down lowers infection; inactive = not picked or not confirmed", "note": "In all, the deposit lists about 22,000 reagents; below is an unselected part of those that have a named target and a result. Over the whole deposit, 116 (0.52%) were called active. 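Calls depend on retest data that are not deposited; infection was ranked per plate without normalising between plates; the unit of the infection score is not given.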 Raw values are not corrected between plates. Unmarked entries are inactive. A plus sign joins genes that one reagent is predicted to hit. Not all columns of the deposit are shown. The record does not give: the amount of reagent, the time to read-out."}
The opening 2 records, ahead of the listing:
{"predicted target": "CG4161", "DRSC id": "DRSC01930", "infection score, replicate 1": 2.27, "cell count, replicate 1": 6925}
{"predicted target": "CG4161", "DRSC id": "DRSC26020", "infection score, replicate 1": 9.53, "cell count, replicate 1": 6242}

Main list, from the first entry:
{"predicted target": "CG4161", "DRSC id": "DRSC01930", "infection score, replicate 1": 2.27, "cell count, replicate 1": 6925}
{"predicted target": "CG4161", "DRSC id": "DRSC26020", "infection score, replicate 1": 9.53, "cell count, replicate 1": 6242}
{"predicted target": "Kyat (Kynurenine aminotransferase)", "DRSC id": "DRSC16147", "infection score, replicate 1": 2.57, "cell count, replicate 1": 6389}
{"predicted target": "Hsp70Aa + Hsp70Bb + Hsp70Ba + 3 more", "DRSC id": "DRSC15380", "infection score, replicate 1": 4.21, "cell count, replicate 1": 6193}
{"predicted target": "BomS5 (Bomanin Short 5)", "DRSC id": "DRSC22306", "infection score, replicate 1": 2.31, "cell count, replicate 1": 5493}
{"predicted target": "Cpr72Ec (Cuticular protein 72Ec)", "DRSC id": "DRSC10449", "infection score, replicate 1": 4.62, "cell count, replicate 1": 7083}
{"predicted target": "CG9555", "DRSC id": "DRSC03264", "infection score, replicate 1": 7.4, "cell count, replicate 1": 6228}
{"predicted target": "CG9555", "DRSC id": "DRSC25330", "infection score, replicate 1": 12.7, "cell count, replicate 1": 7003}
{"predicted target": "CG11178", "DRSC id": "DRSC19396", "infection score, replicate 1": 6.59, "cell count, replicate 1": 6677}
{"predicted target": "Or67c (Odorant receptor 67c)", "DRSC id": "DRSC11242", "infection score, replicate 1": 2.63, "cell count, replicate 1": 5934}
{"predicted target": "CG8157", "DRSC id": "DRSC07085", "infection score, replicate 1": 4.37, "cell count, replicate 1": 6595}
{"predicted target": "CG8157", "DRSC id": "DRSC21595", "infection score, replicate 1": 32.9, "cell count, replicate 1": 6072}
{"predicted target": "CG8157", "DRSC id": "DRSC25401", "infection score, replicate 1": 3.32, "cell count, replicate 1": 6786}
{"predicted target": "jv (javelin)", "DRSC id": "DRSC08831", "infection score, replicate 1": 3.75, "cell count, replicate 1": 5755}
{"predicted target": "jv (javelin)", "DRSC id": "DRSC25736", "infection score, replicate 1": 2.35, "cell count, replicate 1": 6562}
